Results: PMC12079475, “Identification, validation, and characterization of approved and investigational drugs interfering with the SARS‐CoV‐2 endoribonuclease Nsp15” (Protein Science : A Publication of the Protein Society, 2025)

Biological target: Nsp15 (Severe acute respiratory syndrome coronavirus 2, UniProt P0DTD1)
Settings: 5 μM Nsp15, 50 μM ligand; apo protein Tm 60.6 (0.1)°C

Row | SMILES | ΔT m°C nDSF
1 | CC1(C)C(=O)N=C2C1=C(O)C(=O)c1ccccc12 | 3.7 °C
2 | Cc1[nH]c2ccc(F)cc2c1-c1nc2c3cccnc3c3ncccc3c2[nH]1 [APTO‐253] | 0.2 °C
3 | Oc1ccc2ccccc2c1SSc1c(O)ccc2ccccc12 [IPA‐3] | 2 °C
4 | O=C1C(Cl)=C(NCCN2CCOCC2)C(=O)c2ncccc21 [NSC‐663284] | 1.8 °C
